Test [1] concerns HIV-1LAI. The conditions noted are these: for IC50 (inhibition of RT production): 247 TCID50 HIV-1LAI, CEM cells, 7 days, FIG. 2; for inhibition of HIV-1 cell free virus infection (in words): FIG. 1 legend. How it is done:
Synthetic peptides were incubated at 37° C. with either 247 TCID50 (for experiment depicted in FIG. 2), or 62 TCID50 (for experiment depicted in FIG. 3) units of HIV-1LAI virus or 25 TCID50 units of HIV-2NIHZ and CEM CD4+ cells at peptide concentrations of 0, 0.04, 0.4, 4.0, and 40 μg/ml for 7 days. The resulting reverse transcriptase (RT) activity in counts per minute was determined using the assay described, below, in Section 6.1.5. See, Reed, L. J. et al., 1938, Am. J. Hyg. 27: 493-497 for an explanation of TCID50 calculations.
The micro-reverse transcriptase (RT) assay was adapted from Goff et al. (Goff, S. et al., 1981, J. Virol. 38:239-248) and Willey et al. (Willey, R. et al., 1988, J. Virol. 62:139-147). Supernatants from virus/cell cultures are adjusted to 1% Triton-X100. A 10 μl sample of supernatant was added to 50 μl of RT cocktail in a 96-well U-bottom microtitre plate and the samples incubated at 37° C. for 90 min. The RT cocktail contained 75 mM KCl, 2 mM dithiothreitol, 5 mM MgCl2, 5 μg/ml poly A (Pharmacia, cat. No. 27-4110-01), 0.25 units/ml oligo dT (Pharmacia, cat. No. 27-7858-01), 0.05% NP40, 50 mM Tris-HCl, pH 7.8, 0.5 μM non-radioactive dTTP, and 10 μCi/ml ^32P-dTTP (Amersham, cat. No. PB.10167).
After the incubation period, 40 μl of reaction mixture was applied to a Schleicher and Schuell (S+S) NA45 membrane (or DE81 paper) saturated in 2×SSC buffer (0.3M NaCl and 0.003M sodium citrate) held in a S+S Minifold over one sheet of GB003 (S+S) filter paper, with partial vacuum applied. Each well of the minifold washed four times with 200 μl 2×SSC, under full vacuum. The membrane was removed from the minifold and washed 2 more times in a pyrex dish with an excess of 2×SSC. Finally, the membrane was drained on absorbent paper, placed on Whatman #3 paper, covered with Saran wrap, and exposed to film overnight at −70° C.
DP178 (SEQ ID:1) was next tested for its ability to block CD-4^+ CEM cell infection by cell free HIV-1 virus. […] Each concentration (0, 0.04, 0.4, 4, and 40 μg/ml) of peptide was incubated with 247 TCID50 units of HIV-1LAI virus and CEM cells. After 7 days of culture, cell-free supernatant was tested for the presence of RT activity as a measure of successful infection.

Test [2] has as its system HIV-1LAI. The conditions noted are these: Wild et al. 1992; cited from earlier work.

As for `CC[C@H](C)[C@H](NC(=O)CNC(=O)[C@H](Cc1c[nH]c2ccccc12)NC(=O)[C@@H](NC(=O)[C@@H](NC(=O)[C@H](CC(C)C)NC(=O)[C@H](CCC(N)=O)NC(=O)[C@H](CC(C)C)NC(=O)[C@H](CC(C)C)NC(=O)[C@H](Cc1c[nH]cn1)NC(=O)[C@H](CCC(N)=O)NC(=O)[C@H](CCC(N)=O)NC(=O)[C@H](C)NC(=O)[C@H](CCC(=O)O)NC(=O)[C@@H](NC(=O)[C@H](C)NC(=O)[C@H](CCCNC(=N)N)NC(=O)[C@H](CC(C)C)NC(=O)[C@H](CC(C)C)NC(=O)[C@H](CC(N)=O)NC(=O)[C@H](CC(N)=O)NC(=O)CNC(=O)CNC(=O)[C@H](CS)NC(C)=O)[C@@H](C)CC)[C@@H](C)O)C(C)C)C(=O)N[C@@H](CCCCN)C(=O)N[C@@H](CCC(N)=O)C(=O)N[C@@H](CC(C)C)C(=O)N[C@@H](CCC(N)=O)C(=O)N[C@@H](C)C(=O)N[C@@H](CCCNC(=N)N)C(=O)N[C@H](C(=O)N[C@@H](CC(C)C)C(=O)N[C@@H](C)C(=O)N[C@H](C(=O)N[C@@H](CCC(=O)O)C(=O)N[C@@H](CCCNC(=N)N)C(=O)N[C@@H](Cc1ccc(O)cc1)C(=O)N[C@@H](CC(C)C)C(=O)N[C@@H](CCCCN)C(=O)N[C@@H](CC(=O)O)C(=O)N[C@@H](CCC(N)=O)C(N)=O)C(C)C)[C@@H](C)CC` [DP-125], in the test with HIV-1LAI [1], the “IC50 (inhibition of RT production)” value is listed as “approximately 5 μg/ml” and the “inhibition of HIV-1 cell free virus infection (in words)” value is given as “inhibits HIV-1 cell free virus infection”. Also, the “activity in cell-free HIV-1 infection assay, previously shown (in words)” value in the test with HIV-1LAI [2] was “active”.

With `CC[C@H](C)[C@H](NC(=O)[C@H](C)NC(=O)[C@@H](NC(=O)[C@@H](NC(=O)[C@H](CCCNC(=N)N)NC(=O)[C@H](C)NC(=O)[C@H](CCC(N)=O)NC(=O)[C@H](CC(C)C)NC(=O)[C@H](CC(N)=O)NC(=O)[C@H](CCCCN)NC(=O)[C@@H](NC(=O)CNC(=O)[C@H](Cc1c[nH]c2ccccc12)NC(=O)[C@@H](NC(=O)[C@@H](NC(=O)[C@H](CC(C)C)NC(=O)[C@H](CCCNC(=N)N)NC(=O)[C@H](CC(C)C)NC(=O)[C@H](CCSC)NC(=O)[C@H](CCC(=O)O)NC(=O)[C@H](CCC(N)=O)NC(=O)[C@H](CCC(N)=O)NC(=O)[C@H](CCCNC(=N)N)NC(=O)[C@H](CCCCN)NC(=O)[C@@H](NC(=O)[C@@H](NC(=O)[C@H](CC(=O)O)NC(=O)[C@H](CC(C)C)NC(=O)[C@H](CC(C)C)NC(=O)[C@H](CCC(N)=O)NC(=O)[C@H](CCC(N)=O)NC(C)=O)C(C)C)C(C)C)[C@@H](C)O)C(C)C)[C@@H](C)O)C(C)C)[C@@H](C)O)C(=O)N[C@@H](CCC(=O)O)C(=O)N[C@@H](CCCCN)C(=O)N[C@@H](Cc1ccc(O)cc1)C(=O)N[C@@H](CC(C)C)C(=O)N[C@@H](CCCCN)C(=O)N[C@@H](CC(=O)O)C(=O)N[C@@H](CCC(N)=O)C(N)=O` [DP-118], in the test with HIV-1LAI [1], the “IC50 (inhibition of RT production)” value was “approximately 5 μg/ml” and the “inhibition of HIV-1 cell free virus infection (in words)” value is “inhibits HIV-1 cell free virus infection”. For the same compound, the “activity in cell-free HIV-1 infection assay, previously shown (in words)” value in the test with HIV-1LAI [2] is “active”.

Values taken from patent US7273614B2 (priority 1993, dated 2007).
